Measured data: PubChem BioAssay AID624099 (ICCB-Longwood, 2012)
This is a random part of about 21,000 reagents. 497 of all reagents (2.4%) were called active. 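Higher z means weaker E2 silencing; only reporter increases were scored, and knock-downs that hurt cell survival may mask genuine repressor factors.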

Test: 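Knock-downs relieving repression by E2 of an HPV18 LCR luciferase reporter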 (primary screen)
System: human C33A cervical carcinoma cells (HPV-negative) stably expressing BPV1 E2 and an HPV18 LCR luciferase reporter
Knock-down reagent: siRNA pool against human genes, 40 nM
Duration: 72 h
Detection: 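Per-well luciferase luminescence, z-scored on each plate against the plate mean and SD with control wells left out, then averaged across three replicate plates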
Direction: mean z-score and z-score: higher = stronger reporter signal, weaker E2 silencing
Hit rule: 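Mean z ≥ 2 together with z ≥ 2 in two or more of the three replicates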

| gene symbol | mean z-score | z-score, replicate A | z-score, replicate B | z-score, replicate C | outcome |
| --- | --- | --- | --- | --- | --- |
| EMC6 (GeneID 83460) | -1.94 | -1.83 | -2.05 | -1.95 | inactive |
| LSAMP (GeneID 4045) | -1.67 | -1.72 | -1.72 | -1.58 | inactive |
| ICE1 (GeneID 23379) | 1.89 | 2.01 | 1.55 | 2.1 | inactive |
| ETS2 (GeneID 2114) | 1.15 | 1.35 | 0.92 | 1.16 | inactive |
| SLC26A11 (GeneID 284129) | 1.27 | 1.37 | 0.92 | 1.52 | inactive |
| LAPTM4A (GeneID 9741) | -1.22 | -1.19 | -1.5 | -0.97 | inactive |
| TAS2R1 (GeneID 50834) | 0.19 | 0.24 | 0.18 | 0.14 | inactive |
| PHF20 (GeneID 51230) | 1.1 | 0.71 | 0.86 | 1.74 | inactive |
| DIAPH1 (GeneID 1729) | -0.41 | -0.71 | 0.02 | -0.54 | inactive |
| ANKRD11 (GeneID 29123) | 0.54 | 0.62 | 0.69 | 0.32 | inactive |
| CD4 (GeneID 920) | 1.19 | 0.54 | 1.69 | 1.36 | inactive |
| OSCAR (GeneID 126014) | -0.23 | -0.11 | -0.17 | -0.42 | inactive |
| ZNF684 (GeneID 127396) | 0.24 | 0.14 | 0.16 | 0.43 | inactive |
| FRG2C (GeneID 100288801) | 0.42 | 0.28 | 0.36 | 0.6 | inactive |
| POSTN (GeneID 10631) | -0.05 | -0.03 | -0.41 | 0.27 | inactive |
| GARIN1A (GeneID 346653) | -0.19 | 0.06 | -0.35 | -0.29 | inactive |
| IDUA (GeneID 3425) | 1.53 | 1.43 | 2.01 | 1.16 | inactive |
| SUPV3L1 (GeneID 6832) | 0.92 | 0.65 | 1.05 | 1.06 | inactive |
| RTN4RL1 (GeneID 146760) | -0.53 | -0.71 | -0.47 | -0.4 | inactive |
| SMYD5 (GeneID 10322) | -0.42 | -0.68 | -0.36 | -0.23 | inactive |
| BPNT1 (GeneID 10380) | 1.16 | 1.21 | 1.05 | 1.21 | inactive |
| EPM2A (GeneID 7957) | -0.2 | -0.07 | -0.26 | -0.27 | inactive |
| TNFSF14 (GeneID 8740) | -0.78 | -0.85 | -0.93 | -0.57 | inactive |
| ATP2A3 (GeneID 489) | -0.14 | -0.33 | -0.15 | 0.07 | inactive |
| CLK2 (GeneID 1196) | -0.25 | 0 | -0.21 | -0.55 | inactive |
| DDX52 (GeneID 11056) | 0.59 | 0.77 | 0.41 | 0.6 | inactive |
| ZFYVE27 (GeneID 118813) | -0.12 | -0.18 | 0.1 | -0.28 | inactive |
| FGF3 (GeneID 2248) | 0.37 | 0.21 | 0.43 | 0.47 | inactive |
| RPS19 (GeneID 6223) | -2.38 | -2.5 | -2.38 | -2.27 | inactive |
| JUNB (GeneID 3726) | -1.77 | -1.96 | -1.65 | -1.72 | inactive |
| ITGB3 (GeneID 3690) | 1.17 | 1.1 | 1.16 | 1.24 | inactive |
| HAMP (GeneID 57817) | 0.04 | 0.09 | 0.28 | -0.26 | inactive |
| SMG1 (GeneID 23049) | -0.69 | -0.23 | -0.92 | -0.92 | inactive |
| POLI (GeneID 11201) | 1.42 | 1.53 | 1.65 | 1.08 | inactive |
| SHLD2 (GeneID 54537) | -1.07 | -1.08 | -1.06 | -1.07 | inactive |
| DOCK6 (GeneID 57572) | 0.74 | 0.62 | 0.69 | 0.91 | inactive |
| MRS2 (GeneID 57380) | 0.27 | 0.29 | 0.69 | -0.18 | inactive |
| HSDL2 (GeneID 84263) | 0.38 | 0.22 | 0.4 | 0.53 | inactive |
| GRIP2 (GeneID 80852) | 0.56 | 0.36 | 0.46 | 0.86 | inactive |
| DSTN (GeneID 11034) | 0.91 | 0.72 | 0.92 | 1.07 | inactive |
| XPNPEP2 (GeneID 7512) | 0.92 | 0.64 | 0.86 | 1.25 | inactive |
| VIRMA (GeneID 25962) | 0.12 | 0.14 | 0.27 | -0.04 | inactive |
| WNT9B (GeneID 7484) | 0.42 | 0.38 | 0.46 | 0.43 | inactive |
| UACA (GeneID 55075) | 0.67 | 0.9 | 0.65 | 0.44 | inactive |
| KCNJ14 (GeneID 3770) | 0.76 | 0.88 | 0.73 | 0.69 | inactive |
| UBA7 (GeneID 7318) | 0.13 | 0.28 | -0.11 | 0.22 | inactive |
| MADD (GeneID 8567) | 0.7 | 0.67 | 0.61 | 0.82 | inactive |
| NUGGC (GeneID 389643) | 1.8 | 2.35 | 1.74 | 1.3 | inactive |
| ZNF124 (GeneID 7678) | 0.65 | 0.58 | 0.6 | 0.77 | inactive |
| IFNL1 (GeneID 282618) | 1.73 | 2.45 | 1.44 | 1.31 | inactive |
| SSUH2 (GeneID 51066) | -0.22 | -0.38 | -0.09 | -0.19 | inactive |
| VCF2 (GeneID 90736) | -0.88 | -0.85 | -1.01 | -0.79 | inactive |
| NEK10 (GeneID 152110) | -0.08 | 0.25 | -0.44 | -0.06 | inactive |
| CIAO2A (GeneID 84191) | -1.08 | -1.19 | -1.08 | -0.96 | inactive |
| RP1 (GeneID 6101) | 1.54 | 1.21 | 1.63 | 1.79 | inactive |
| ATP11B (GeneID 23200) | 0.07 | -0.03 | 0.05 | 0.2 | inactive |
| SLC39A3 (GeneID 29985) | -0.76 | -0.9 | -0.6 | -0.77 | inactive |
